Compound potency records, mixed from different reports. Data source: NIAID ChemDB in PubChem.

Shared fields: growth or infection tests; organism: HIV-1; read-out: EC50

ECn is the concentration giving n% inhibition of infection, replication or growth. Blank or dashed fields: not listed here. Conditions beyond the fields shown may differ between rows. a–b is a range or a potency band.

smiles | mutations | read by | strain or isolate | cells | value
CCN1c2ncc(CCOc3ccc(NC(=O)c4ccccc4C(=O)O)cc3C)cc2C(=O)N(C)c2cccnc21 | RT-K103N Y181C | p24 |  | C8166 | 0.01–0.05 µM
CCc1ccc(-c2c([C@H](OC(C)(C)C)C(=O)O)c(C)nc3ccccc23)cc1 |  | luciferase / reporter gene |  | C8166 | <20 µM
CC(C)(C)OC(=O)NN(Cc1ccccc1)C[C@H](O)[C@H](Cc1ccccc1)NC(=O)[C@H](CC(N)=O)NC(=O)c1ccc2ccccc2n1 |  | cytopathic effect / RT activity / trypan blue | Clinical isolate strain 237228 | MT-2 | <1 µM
CCCC(C(=O)O)c1c(C)nc2ccc(Cl)cc2c1-c1cc2ccccc2o1 |  | luciferase / reporter gene |  | C8166 | <20 µM
CC(C)=CCOc1cc(NC(=S)c2ccoc2C)ccc1Cl | RT-T139I | cytopathic effect / XTT | Calanolide A-resistant (RT T139I) | CEM + CEM-SS | 0.04 µM
C=C(C)[C@@H]1CC[C@]2(C(=O)NCCC(C)(C)C)CC[C@]3(C)[C@H](CC[C@@H]4[C@@]5(C)CC[C@H](OC(=O)CC(C)(C)C(=O)O)C(C)(C)[C@@H]5CC[C@]43C)[C@@H]12 | T371delta | absorbance | NL4-3 |  | 0.117 µM
CCN1c2ncc(CCOc3ccc(Nc4ccc(C(=O)O)cc4)cc3C)cc2C(=O)N(C)c2cccnc21 |  | p24 | IIIB | C8166 | <0.01 µM
O=C(O)c1cc(-n2cccc2)ccc1Cl |  | luciferase / cell fusion | 92US657 R5 CLADE B | PBMC/5.25M7 | 38.11 µM
CSc1ccc(-c2c(C(OC(C)C)C(=O)O)c(C)nc3ccc(Cl)cc23)cc1 |  | luciferase / reporter gene |  | C8166 | <20 µM
C[C@@H]1CN(C(=O)c2ccccc2)CCN1C(=O)C(=O)c1c[nH]c2c(NC(=O)Nc3ccc(S(=O)(=O)O)cc3)cccc12 |  | luciferase / reporter gene |  | HeLa | <1 µM
O=C(C(=O)N1CCN(C(=O)c2ccccc2)CC1)c1c[nH]c2ccccc12 |  | single cycle | JR-FL | HeLa-CD4/CCR5 | 0.2 µM
C[C@@H]1CN(C(=O)c2ccccc2)CCN1/C(O)=C(/O)c1c[nH]c2c(NC(=O)Nc3ccc([N+](=O)[O-])cc3)cccc12 |  | luciferase / reporter gene |  | HeLa | <1 µM
C[C@H]1[C@H](O)[C@@H](C)/C=C/C=C/C=C/C=C/C=C/C=C/C=C/[C@H](O[C@@H]2O[C@H](C)[C@@H](O)[C@H](N)[C@@H]2O)C[C@@H]2O[C@](O)(C[C@@H](O)C[C@@H](O)CC[C@H](O)[C@@H](O)C[C@@H](O)CC(=O)O[C@H]1C)C[C@H](O)[C@H]2C(=O)O |  | p24 / RT activity | 92TH026 CLADE B R5 (NSI) | PBMC | 3.7 µM
CC(C)N(C[C@H](O)[C@H](Cc1ccccc1)NC(=O)[C@H](CC(N)=O)NC(=O)c1ccccn1)NC(=O)OC(C)(C)C |  | cytopathic effect / RT activity / trypan blue | Clinical isolate strain 237228 | MT-2 | <1 µM
Cc1ccc(S(=O)(=O)Nc2cccc3c(C(=O)C(=O)N4CCN(C(=O)c5ccccc5)C[C@H]4C)cn(S(=O)(=O)c4ccc(C)cc4)c23)cc1 |  | luciferase / reporter gene |  | HeLa | <1 µM
CCN1c2ncc(CCOc3ccc(-c4cccc(C(=O)O)c4)cc3)cc2C(=O)N(C)c2cccnc21 | RT-K103N Y181C | p24 |  | C8166 | 0.01–0.05 µM
COS(=O)(=O)c1ccc(NC(=O)Nc2cccc3c(C(=O)C(=O)N4CCC(=C(C#N)c5ccccc5)CC4)c[nH]c23)cc1 |  | luciferase / reporter gene |  | HeLa | <1 µM
C[C@H]1CO[C@@H]2Cn3cc(C(=O)NCc4ccc(F)cc4F)c(=O)c(O)c3C(=O)N12 | G118R | RT activity | NL4-3 | CBMC | 0.0045 µM
CCN1c2ncc(CCOc3ccc(C(=O)Nc4cccn(CC(=O)O)c4=O)cc3C)cc2C(=O)N(C)c2cccnc21 |  | p24 | IIIB | C8166 | >0.05 µM
COC(=O)C[C@H](CCCCNC(=O)OCc1ccccc1)NC(=O)c1ccccc1SSc1ccccc1C(=O)N[C@@H](CCCCNC(=O)OCc1ccccc1)CC(=O)OC |  | cytopathic effect / XTT | IIIB | CEM | >16 µM
CC(C)(C)OC(=O)N1CC2CCCCC2CN1CC(O)[C@H](Cc1ccccc1)NC(=O)[C@H](CCC(N)=O)NC(=O)c1ccc2ccccc2n1 |  | cytopathic effect / RT activity / trypan blue | Clinical isolate strain 237228 | MT-2 | <1 µM
CC(C)C1=C2[C@H]3CC[C@@H]4[C@@]5(C)CC[C@H](OC(=O)[C@H]6C[C@@H](C(=O)O)C6(C)C)C(C)(C)[C@@H]5CC[C@@]4(C)[C@]3(C)CC[C@@]2([C@@H](O)CN(CCN(C)C)Cc2cccc(Cl)c2)CC1=O |  | p24 / ELISA | 92HT599 | MT-2 | <1 µM
CC(C)(NC(=O)c1ccccc1SSc1ccccc1C(=O)NC(C)(C)C(=O)O)C(=O)O |  | cytopathic effect / XTT | IIIB | CEM | 25 µM
Cc1nc2ccccc2c(-c2ccc(CF)cc2)c1[C@H](OC(C)(C)C)C(=O)O |  | luciferase / reporter gene |  | C8166 | <20 µM
Cc1cc(C(=O)NCC[C@@]23CC[C@]4(C)[C@H](CC[C@@H]5[C@@]6(C)CC[C@H](OC(=O)[C@H]7C[C@@H](C(=O)O)C7(C)C)C(C)(C)[C@@H]6CC[C@]54C)C2=C(C(C)C)C(=O)C3)n[nH]1 |  | p24 / ELISA | 92HT599 | MT-2 | <1 µM
COC(=O)C(NC(=O)c1ccccc1SSc1ccccc1C(=O)NC(C(=O)OC)C(=O)OC)C(=O)OC |  | cytopathic effect / XTT | IIIB | CEM | >100 µM
CCN1c2ncc(CCOc3ccc(NC(=O)c4ccc(C(=O)O)cc4)cc3C)cc2C(=O)N(C)c2cccnc21 | RT-K103N Y181C | p24 |  | C8166 | >0.05 µM
CCCC(C(=O)O)c1c(C)nc2ccc(Cl)cc2c1-c1ccc(CC#N)cc1 |  | luciferase / reporter gene |  | C8166 | <20 µM
CC(C)C1=C2[C@H]3CC[C@@H]4[C@@]5(C)CC[C@H](OC(=O)[C@H]6C[C@@H](C(=O)O)C6(C)C)C(C)(C)[C@@H]5CC[C@@]4(C)[C@]3(C)CC[C@@]2([C@@H](O)CNCC(C)(C)NC(=O)c2nccs2)CC1=O |  | p24 / ELISA | 92HT599 | MT-2 | <1 µM
CC(C)=CCOc1cc(NC(=S)c2ccsc2C)ccc1Cl | RT-K101E | cytopathic effect / XTT | NL4-3 (RT K101E) | CEM + CEM-SS | 0.006 µM
CC(C)[C@@H](CC(=O)O)NC(=O)c1ccccc1SSc1ccccc1C(=O)N[C@H](CC(=O)O)C(C)C |  | cytopathic effect / XTT | IIIB | CEM | 5.1 µM
Cc1nc2ccc(Cl)cc2c(-c2ccc(CCF)cc2)c1C(OC(C)(C)C)C(=O)O |  | luciferase / reporter gene |  | C8166 | <20 µM
CC(C)N(C[C@@H](O)[C@H](Cc1ccccc1)NC(=O)[C@H](CC(N)=O)NC(=O)c1ccc2ccccc2n1)NC(=O)OC(C)(C)C |  | cytopathic effect / RT activity / trypan blue | Clinical isolate strain 237228 | MT-2 | <1 µM
CC(C)C1=C2[C@H]3CC[C@@H]4[C@@]5(C)CC[C@H](OC(=O)[C@H]6C[C@@H](C(=O)O)C6(C)C)C(C)(C)[C@@H]5CC[C@@]4(C)[C@]3(C)CC[C@@]2([C@@H](O)CNC(=O)c2ccccc2Cl)CC1=O |  | p24 / ELISA | 92HT599 | MT-2 | <1 µM
CC[C@H](C)[C@H](NC(=O)c1ccccc1SSc1ccccc1C(=O)N[C@H](C(=O)OC(C)(C)C)[C@@H](C)CC)C(=O)OC(C)(C)C |  | cytopathic effect / XTT | IIIB | CEM | >95 µM
CC(C)C1=C2[C@H]3CC[C@@H]4[C@@]5(C)CC[C@H](OC(=O)[C@H]6C[C@@H](C(=O)O)C6(C)C)C(C)(C)[C@@H]5CC[C@@]4(C)[C@]3(C)CC[C@@]2(CCNCC(C)(C)NC(=O)c2ccc(OCCN3CCOCC3)cc2)CC1=O |  | p24 / ELISA | 92HT599 | MT-2 | <1 µM
Cc1cscc1-c1c(C(OC(C)C)C(=O)O)c(C)nc2ccc(Cl)cc12 |  | luciferase / reporter gene |  | C8166 | <20 µM
CC(C)C1=C2[C@H]3CC[C@@H]4[C@@]5(C)CC[C@H](OC(=O)[C@H]6C[C@@H](C(=O)O)C6(C)C)C(C)(C)[C@@H]5CC[C@@]4(C)[C@]3(C)CC[C@@]2(CC(=O)NC2(c3ccc(Cl)cc3)CC2)CC1=O |  | p24 / ELISA | 92HT599 | MT-2 | <1 µM
CCN1c2ncc(CCOc3ccc(-c4ccc(C(=O)O)cc4)c(Cl)c3)cc2C(=O)N(C)c2cccnc21 |  | p24 | IIIB | C8166 | 0.01–0.05 µM

4 of the rows above, restated:

smiles,mutations,read by,strain or isolate,cells,value
COS(=O)(=O)c1ccc(NC(=O)Nc2cccc3c(C(=O)C(=O)N4CCC(=C(C#N)c5ccccc5)CC4)c[nH]c23)cc1,,luciferase / reporter gene,,HeLa,<1 µM
C=C(C)[C@@H]1CC[C@]2(C(=O)NCCC(C)(C)C)CC[C@]3(C)[C@H](CC[C@@H]4[C@@]5(C)CC[C@H](OC(=O)CC(C)(C)C(=O)O)C(C)(C)[C@@H]5CC[C@]43C)[C@@H]12,T371delta,absorbance,NL4-3,,0.117 µM
CC(C)[C@@H](CC(=O)O)NC(=O)c1ccccc1SSc1ccccc1C(=O)N[C@H](CC(=O)O)C(C)C,,cytopathic effect / XTT,IIIB,CEM,5.1 µM
CCN1c2ncc(CCOc3ccc(-c4ccc(C(=O)O)cc4)c(Cl)c3)cc2C(=O)N(C)c2cccnc21,,p24,IIIB,C8166,0.01–0.05 µM